Reference: PMC7473772 (eLife, 2020)

Test system: tbaqp2/tbaqp3 null cells expressing TbAQP2WT
Experiment: Drug sensitivity assay (resazurin)
Type: cell-based, Trypanosoma brucei brucei
Conditions: +AQP2 WT (sensitive control)

O=[As]c1ccccc1 (stereo not shown)
EC50, percent of AQP2/3 null EC50: 104.03%
